# PSTVd loop 15 mutant pool in Nicotiana benthamiana

Region: loop 15 of PSTVd (intermediate strain), upper and lower strand joined, each 5' to 3', the first 7 letters being the upper strand, closing pairs included. Wild type: GGAAACCGCUACUAC. Varied positions (N): GGAAACCGNNNNNNC.

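A pool of all variants was put on leaves of three Nicotiana benthamiana plants. Progeny were sequenced from the inoculated region (day 5), the margin of the inoculated leaf (day 10) and systemic leaves (day 12).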

Numbers give reads per thousand; 0 = not seen among the reads, higher = more abundant.
Each site shows the three plants.
"Pool" is the share in the plasmid pool used as inoculum, on the same scale.
The inoculated region was read from the minus strand, the other sites from the plus strand.
IR is the inoculated region, LM the leaf margin, Sys the systemic leaves.
Sequences that differ at fixed positions probably stem from PCR or sequencing errors, and defective variants can be carried along by functional ones.
For reference, wild type rose from 33.9 per thousand in the pool to 202, 200, 159 (inoculated region), 724, 746, 710 (leaf margin) and 856, 883, 880 (systemic leaves).
Samples held 43,870 to 66,106 reads, so the smallest values rest on one or two reads.

sequence,pool,IR,LM,Sys
GGAAACCGGGUUCAC,0.176,0.0983 / 0.112 / 0.171,0 / 0 / 0,0.0322 / 0 / 0
GGAAACCGGGUUCCC,0.272,0.0655 / 0.0321 / 0.0571,0.0162 / 0 / 0.0200,0 / 0 / 0
GGAAACCGGGUUCGC,0.256,0.0491 / 0.0964 / 0.133,0 / 0 / 0.0601,0 / 0 / 0
GGAAACCGGGUUCUC,0.208,0.0819 / 0.0964 / 0.190,0 / 0 / 0.0401,0 / 0 / 0
GGAAACCGGGUUGAC,0.240,0.180 / 0.145 / 0.133,0 / 0.0223 / 0.0200,0 / 0 / 0
GGAAACCGGGUUGCC,0.176,0.0983 / 0.0964 / 0.0762,0.0162 / 0.0223 / 0,0 / 0 / 0
GGAAACCGGGUUGGC,0.208,0.0819 / 0.0803 / 0.152,0 / 0 / 0.0401,0 / 0 / 0
GGAAACCGGGUUGUC,0.208,0.0655 / 0.0643 / 0.209,0 / 0.0223 / 0.0401,0 / 0 / 0
GGAAACCGGGUUUAC,0.256,0.131 / 0.0482 / 0.190,0 / 0 / 0,0.0161 / 0 / 0
GGAAACCGGGUUUCC,0.208,0.0655 / 0.0803 / 0.0952,0.0323 / 0 / 0.0200,0 / 0 / 0
GGAAACCGGGUUUGC,0.160,0.0819 / 0.0803 / 0.114,0.0162 / 0 / 0.0200,0 / 0 / 0
GGAAACCGGGUUUUC,0.192,0.0655 / 0.177 / 0.209,0.0162 / 0 / 0.0200,0 / 0 / 0
GGAAACCGGUAAAAC,0.176,0.278 / 0.273 / 0.400,0.0970 / 0.134 / 0.220,0.0483 / 0.0454 / 0.0684
GGAAACCGGUAAACC,0.224,0.0655 / 0.0803 / 0.114,0 / 0 / 0.0200,0 / 0 / 0
GGAAACCGGUAAAGC,0.320,0.0819 / 0.129 / 0.0762,0 / 0 / 0,0.0161 / 0 / 0
GGAAACCGGUAAAUC,0.256,0.0655 / 0.129 / 0.0381,0 / 0 / 0,0.0161 / 0 / 0
GGAAACCGGUAACAC,0.224,0.344 / 0.321 / 0.209,0.129 / 0.0668 / 0.240,0.0322 / 0.0454 / 0.0456
GGAAACCGGUAACCC,0.160,0.0983 / 0.0321 / 0.152,0.0162 / 0 / 0,0 / 0 / 0
GGAAACCGGUAACGC,0.336,0.115 / 0.112 / 0.152,0.0162 / 0 / 0.0401,0 / 0 / 0
GGAAACCGGUAACUC,0.400,0.0983 / 0.112 / 0.152,0.0162 / 0.0223 / 0.0401,0.0161 / 0 / 0
GGAAACCGGUAAGAC,0.160,0.115 / 0.112 / 0.190,0.0323 / 0 / 0.0401,0.0322 / 0.0151 / 0
GGAAACCGGUAAGCC,0.208,0.0819 / 0.209 / 0.0571,0 / 0 / 0,0 / 0 / 0
GGAAACCGGUAAGGC,0.224,0.0819 / 0.0643 / 0.152,0 / 0 / 0,0 / 0 / 0
GGAAACCGGUAAGUC,0.256,0.0819 / 0.0643 / 0.0762,0 / 0.0223 / 0.0200,0 / 0 / 0
GGAAACCGGUAAUAC,0.0800,0.278 / 0.337 / 0.248,0.146 / 0.0445 / 0.180,0.0322 / 0.0151 / 0.0912
GGAAACCGGUAAUCC,0.240,0.0983 / 0.0482 / 0.0190,0.0162 / 0 / 0,0.0161 / 0 / 0.0228
GGAAACCGGUAAUGC,0.208,0.393 / 0.193 / 0.305,0.146 / 0.0891 / 0.0601,0.145 / 0.0605 / 0.137
GGAAACCGGUAAUUC,0.224,0.328 / 0.530 / 0.286,0.162 / 0.178 / 0.120,0.0644 / 0.0303 / 0.0684
GGAAACCGGUACAAC,0.288,0.377 / 0.305 / 0.305,0.162 / 0.156 / 0.120,0.0322 / 0.0151 / 0
GGAAACCGGUACACC,0.224,0.0983 / 0.112 / 0.133,0 / 0.0223 / 0,0 / 0 / 0
GGAAACCGGUACAGC,0.144,0.131 / 0.145 / 0.0762,0 / 0 / 0,0 / 0 / 0
GGAAACCGGUACAUC,0.256,0.0983 / 0.129 / 0.152,0.0162 / 0.0223 / 0.0200,0.0322 / 0 / 0
GGAAACCGGUACCAC,0.288,0.180 / 0.402 / 0.190,0.194 / 0.0668 / 0.160,0.0644 / 0.0303 / 0.228
GGAAACCGGUACCCC,0.224,0.115 / 0.0482 / 0.133,0.0485 / 0 / 0.0401,0 / 0 / 0
GGAAACCGGUACCGC,0.224,0.180 / 0.112 / 0.0952,0 / 0 / 0.0200,0.0161 / 0 / 0
GGAAACCGGUACCUC,0.336,0.0819 / 0.129 / 0.133,0.0162 / 0 / 0.0601,0 / 0 / 0
GGAAACCGGUACGAC,0.192,0.115 / 0.0643 / 0.0952,0 / 0 / 0,0 / 0.0151 / 0
GGAAACCGGUACGCC,0.224,0.0983 / 0.129 / 0.133,0.0323 / 0 / 0,0.0161 / 0 / 0
GGAAACCGGUACGGC,0.336,0.115 / 0.0321 / 0.114,0 / 0 / 0.0200,0 / 0 / 0
GGAAACCGGUACGUC,0.240,0.164 / 0.0964 / 0.133,0.0162 / 0 / 0.0200,0.0161 / 0 / 0
GGAAACCGGUACUAC,0.192,30.9 / 30.4 / 26.1,18.1 / 17.0 / 13.4,8.68 / 6.64 / 6.13
GGAAACCGGUACUCC,0.288,0.0819 / 0.0964 / 0.0381,0 / 0.0223 / 0,0 / 0 / 0
GGAAACCGGUACUGC,0.208,0.278 / 0.225 / 0.267,0.0808 / 0.134 / 0.120,0 / 0.0908 / 0.0456
GGAAACCGGUACUUC,0.160,0.360 / 0.209 / 0.514,0.129 / 0.0668 / 0.160,0.0322 / 0.0454 / 0.0228
GGAAACCGGUAGAAC,0.288,0.360 / 0.289 / 0.381,0.113 / 0.111 / 0.100,0.0805 / 0.0303 / 0.0684
GGAAACCGGUAGACC,0.304,0.0983 / 0.0643 / 0.0952,0 / 0 / 0,0.0161 / 0 / 0
GGAAACCGGUAGAGC,0.224,0.0819 / 0.0803 / 0.114,0 / 0 / 0.0401,0 / 0 / 0
GGAAACCGGUAGAUC,0.0640,0.278 / 0.353 / 0.190,0.146 / 0.0445 / 0.120,0.0161 / 0.0454 / 0.0912
GGAAACCGGUAGCAC,0.256,0.262 / 0.386 / 0.457,0.162 / 0.134 / 0.140,0.0644 / 0.0454 / 0.160
GGAAACCGGUAGCCC,0.192,0.0655 / 0.129 / 0.0571,0 / 0 / 0,0 / 0 / 0
GGAAACCGGUAGCGC,0.176,0.164 / 0.0803 / 0.0571,0 / 0.0223 / 0.0401,0 / 0 / 0
GGAAACCGGUAGCUC,0.272,0.115 / 0.0643 / 0.0571,0.0323 / 0 / 0,0 / 0 / 0
GGAAACCGGUAGGAC,0.304,0.246 / 0.257 / 0.286,0.113 / 0.0668 / 0.120,0.0644 / 0 / 0.160
GGAAACCGGUAGGCC,0.304,0.0819 / 0.0803 / 0.152,0 / 0 / 0,0 / 0 / 0
GGAAACCGGUAGGGC,0.256,0.147 / 0.0803 / 0.152,0.0162 / 0 / 0.0200,0.0161 / 0 / 0
GGAAACCGGUAGGUC,0.224,0.197 / 0.353 / 0.267,0.0323 / 0.156 / 0.160,0.0161 / 0.0756 / 0.0456
GGAAACCGGUAGUAC,0.336,0.295 / 0.337 / 0.495,0.178 / 0.156 / 0.0401,0.0322 / 0 / 0
GGAAACCGGUAGUCC,0.288,0.377 / 0.337 / 0.419,0.0647 / 0.223 / 0.200,0.0161 / 0.0605 / 0.0456
GGAAACCGGUAGUGC,0.208,0.295 / 0.402 / 0.343,0.162 / 0.0891 / 0.100,0.0644 / 0.0908 / 0.0684
GGAAACCGGUAGUUC,0.240,0.229 / 0.402 / 0.343,0.146 / 0.0445 / 0.200,0 / 0.0303 / 0.114
GGAAACCGGUAUAAC,0.240,0.344 / 0.241 / 0.438,0.0808 / 0.156 / 0.0601,0.0644 / 0.0756 / 0.0456
GGAAACCGGUAUACC,0.176,0.0491 / 0.145 / 0.0762,0.0323 / 0 / 0.0200,0 / 0 / 0
GGAAACCGGUAUAGC,0.192,0.0655 / 0.112 / 0.0762,0.0162 / 0 / 0,0 / 0 / 0
GGAAACCGGUAUAUC,0.128,0.426 / 0.225 / 0.305,0.113 / 0.0445 / 0.180,0.0322 / 0 / 0

Extract of 9 entries:

sequence	pool	IR	LM	Sys
GGAAACCGGUAGAGC	0.224	0.0819 / 0.0803 / 0.114	0 / 0 / 0.0401	0 / 0 / 0
GGAAACCGGUAAUAC	0.0800	0.278 / 0.337 / 0.248	0.146 / 0.0445 / 0.180	0.0322 / 0.0151 / 0.0912
GGAAACCGGUACGAC	0.192	0.115 / 0.0643 / 0.0952	0 / 0 / 0	0 / 0.0151 / 0
GGAAACCGGUAAUGC	0.208	0.393 / 0.193 / 0.305	0.146 / 0.0891 / 0.0601	0.145 / 0.0605 / 0.137
GGAAACCGGUACUCC	0.288	0.0819 / 0.0964 / 0.0381	0 / 0.0223 / 0	0 / 0 / 0
GGAAACCGGUAUAAC	0.240	0.344 / 0.241 / 0.438	0.0808 / 0.156 / 0.0601	0.0644 / 0.0756 / 0.0456
GGAAACCGGGUUCGC	0.256	0.0491 / 0.0964 / 0.133	0 / 0 / 0.0601	0 / 0 / 0
GGAAACCGGUAAGAC	0.160	0.115 / 0.112 / 0.190	0.0323 / 0 / 0.0401	0.0322 / 0.0151 / 0
GGAAACCGGUAGGGC	0.256	0.147 / 0.0803 / 0.152	0.0162 / 0 / 0.0200	0.0161 / 0 / 0

The measurements come from Wu et al. 2024 (doi:10.1371/journal.ppat.1012142).